{"source": "patent US8080523B2", "about": "(The Regents of the University of California, priority 2004, dated 2011)", "key": {"in vivo": {"experiment": "in vivo", "type": "in vivo, rat"}, "[1]": {"experiment": "Cytotoxicity (% dead cells), RPMI 8226 myeloma", "type": "cell-based", "conditions": "100 nM, 48 hours"}, "[2]": {"experiment": "Stability in rat plasma or PBS containing 2% rat plasma at 37° C.", "type": "in vitro ADME", "conditions": "in about 5 hours, then steady for 2 days"}, "[3]": {"system": "acute EAE induced by the transfer of MBP-activated PAS TEM cells into Lewis rats", "type": "in vivo, rat", "conditions": "10 μg/kg/day for 5 days"}, "tester strain TA97A": {"system": "tester strain TA97A", "experiment": "Ames test", "type": "cell-based", "conditions": "100 nM"}, "conscious rats": {"system": "conscious rats", "experiment": "Heart rate variability analysis (electrocardiogram) in conscious rats", "type": "in vivo, rat"}, "[4]": {"experiment": "Cytotoxicity (% dead cells), Jurkat cells", "type": "cell-based", "conditions": "100 nM, 48 hours"}, "[5]": {"experiment": "Cytotoxicity (% dead cells), human PBMCs", "type": "cell-based", "conditions": "100 nM, 48 hours"}}, "note": "Read-outs that look alike come from different tables or passages of the source.", "data": [{"smiles": "CC[C@H](C)[C@@H]1NC(=O)[C@@H](NC(=O)[C@H](CO)NC(=O)[C@H](CCCNC(=N)N)NC(=O)COCCOCCNC(=O)[C@@H](N)Cc2ccc(OP(=O)(O)O)cc2)CSSC[C@@H](C(=O)O)NC(=O)[C@H]([C@@H](C)O)NC(=O)CNC(=O)[C@@H]2CSSC[C@@H]3NC(=O)[C@H](CCC(N)=O)NC(=O)[C@H](Cc4ccccc4)NC(=O)[C@H](C)NC(=O)[C@H]([C@@H](C)O)NC(=O)[C@H](CSSC[C@H](NC(=O)[C@H](Cc4ccccc4)NC(=O)[C@H](CO)NC(=O)[C@H](CC(C)C)NC(=O)[C@H](CCCNC(=N)N)NC(=O)[C@H](Cc4ccc(O)cc4)NC(=O)[C@H](CCCCN)NC(=O)[C@H](CCSC)NC(=O)[C@H](CO)NC(=O)[C@H](Cc4cnc[nH]4)NC(=O)[C@H](CCCCN)NC3=O)C(=O)N[C@@H](CCCNC(=N)N)C(=O)N[C@@H](CCCCN)C(=O)N[C@@H]([C@@H](C)O)C(=O)N2)NC(=O)[C@H](CCCNC(=N)N)NC(=O)[C@H](CO)NC(=O)[C@H](CCCCN)NC(=O)[C@@H]2CCCN2C(=O)[C@H]([C@@H](C)CC)NC(=O)[C@H]([C@@H](C)O)NC(=O)[C@H](CC(=O)O)NC1=O", "note": "[ShK(L5)]", "values": [{"measurement": "level at time molar at 24 h", "setting": "in vivo; Lewis, rat, in vivo, sc, 10 mg/kg/day, repeated daily administration 10 mg/kg/day, measured 24 hours after injection, read-out: steady-state level", "result": "~0.3", "unit": "nM"}, {"measurement": "level at time molar at 24 h", "setting": "in vivo; rat, in vivo, sc, 10 mg/kg, almost 24 hours after a single subcutaneous injection of 10 mg/kg, read-out: steady-state level in the blood", "result": 0.3, "unit": "nM"}, {"measurement": "level at time molar at 7 h", "setting": "in vivo; rat, in vivo, sc, 200 mg/kg, 200 mg/kg s.c., over 420 minutes, read-out: baseline serum level", "result": "~0.3", "unit": "nM"}, {"measurement": "half-life", "setting": "in vivo; rat, in vivo, sc, single exponential fit, 200 mg/kg s.c., read-out: circulating half-life", "result": "~50", "unit": "min"}, {"measurement": "Kv1.3- versus Kv1.1-blocking activities of sera from treated rats (in vivo stability)", "setting": "in vivo; serum samples from ShK(L5)-treated animals", "result": "same selectivity"}, {"measurement": "disappearance from blood, intravenous versus subcutaneous", "setting": "in vivo; single injections of 10 mg/kg", "result": "same time course"}, {"measurement": "time to peak level", "setting": "in vivo; single subcutaneous injection of 200 mg/kg", "result": 30, "unit": "min"}, {"measurement": "cytotoxicity at 0.1 µM", "setting": "[1]", "result": "6.5 ± 2.1", "unit": "%"}, {"measurement": "reduction in Kv1.3-blocking activity", "setting": "[2]", "result": 50, "unit": "%"}, {"measurement": "signs of toxicity in prevention trials", "setting": "[3]", "result": "No signs of toxicity"}, {"measurement": "Ames Test", "setting": "tester strain TA97A", "result": "Negative"}, {"measurement": "effect on heart rate or the standard HRV parameters", "setting": "conscious rats; 10 mg/kg/day on day-2", "result": "no effect"}, {"measurement": "CV %", "setting": "conscious rats; acute, 10 μg/kg", "result": "9.2 ± 2.2", "unit": "%"}, {"measurement": "HF (%)", "setting": "conscious rats; acute, 10 μg/kg", "result": "53 ± 10", "unit": "%"}, {"measurement": "Heart rate", "setting": "conscious rats; acute, 10 μg/kg", "result": "311 ± 20"}, {"measurement": "LF (%)", "setting": "conscious rats; acute, 10 μg/kg", "result": "47 ± 10", "unit": "%"}, {"measurement": "SDNN", "setting": "conscious rats; acute, 10 μg/kg", "result": "17.8 ± 4.4"}, {"measurement": "rMSSD", "setting": "conscious rats; acute, 10 μg/kg", "result": "9.8 ± 3.5"}, {"measurement": "cytotoxicity at 0.1 µM", "setting": "[4]", "result": "5.5 ± 3.3", "unit": "%"}, {"measurement": "cytotoxicity at 0.1 µM", "setting": "[5]", "result": "7.5 ± 4.3", "unit": "%"}]}]}
